Measured values from several laboratories, pooled; numbers as filed in NIAID ChemDB.

Common to all: growth or infection tests; species: Mycobacterium fortuitum

Lines come from different laboratories, so protocols vary. MIC50, MIC90 and the like: level of inhibition, or share of isolates inhibited. Blank or dashed fields: not listed here.

structure | read-out | method | strain or isolate | value
NC[C@H]1O[C@H](O[C@H]2[C@H](O)[C@@H](O[C@H]3O[C@H](CO)[C@@H](O)[C@H](N)[C@H]3O)[C@H](N)C[C@@H]2N)[C@H](N)C[C@@H]1O | MBC | - | ATCC 6841 | >64 µg/mL
CC(C)N=c1cc2n(-c3ccc(Cl)cc3)c3ccccc3nc-2cc1Nc1ccc(Cl)cc1 | MIC | - | 6842 ATCC | 13.3 µg/mL
CC[C@H]1OC(=O)[C@H](C)[C@@H](O[C@H]2C[C@@](C)(OC)[C@@H](O)[C@H](C)O2)[C@H](C)[C@@H](O[C@@H]2O[C@H](C)C[C@H](N(C)C)[C@H]2O)[C@](C)(O)C[C@@H](C)CN(C)[C@H](C)[C@@H](O)[C@]1(C)O | MIC50 | - | 25 isolates | >8 µg/mL
CCc1cc(C(N)=S)ccn1 | MIC50 | - | 22 strains | 5 µg/mL
Cc1noc2nc(C)n(/N=C/c3ccc([N+](=O)[O-])cc3)c(=O)c12 | MIC90 | resazurin | PCM 672 | 62.5 µg/mL
COc1c(N2CCNC(C)C2)c(F)cc2c(=O)c(C(=O)O)cn(C3CC3)c12 | MIC50 | - | 20 strains | 0.2 µg/mL
Cc1noc2nc(C)n(/N=C/c3ccncc3)c(=O)c12 | MIC90 | resazurin | PCM 672 | >100 µg/mL
CO[C@@]1(NC(=O)C(C(=O)O)c2ccc(O)cc2)C(=O)N2C(C(=O)O)=C(CSc3nnnn3C)CO[C@@H]21 | MIC | - | 1048 | 50 µg/mL
NCC[C@H](O)C(=O)N[C@@H]1C[C@H](N)[C@@H](O[C@H]2O[C@H](CN)[C@@H](O)[C@H](O)[C@H]2O)[C@H](O)[C@H]1O[C@H]1O[C@H](CO)[C@@H](O)[C@H](N)[C@H]1O | MBC90 | - | 31 isolates | 64 µg/mL
C[C@@H]1CN(c2c(F)c(N)c3c(=O)c(C(=O)O)cn(C4CC4)c3c2F)C[C@H](C)N1 | MBC | - | NCTC 10394 | 0.5 µg/mL
NC[C@H]1O[C@H](O[C@H]2[C@H](O)[C@@H](O[C@H]3O[C@H](CO)[C@@H](O)[C@H](N)[C@H]3O)[C@H](N)C[C@@H]2N)[C@H](O)[C@@H](O)[C@@H]1O | MBC90 | - | 31 isolates | >64 µg/mL
C[C@H]1C[C@H](N)CN1c1cc2c(cc1F)c(=O)c(C(=O)O)cn2-c1ccc(F)cc1F | MIC50 | - | 25 isolates | 8 µg/mL
C[C@@H](O)[C@H]1C(=O)N2C(C(=O)O)=C(SCCN=CN)C[C@H]12 | MIC | - | 1030-8 | 1.56 µg/mL
Cc1noc(N)c1C(=O)N/N=C/c1ccc(Cl)cc1 | MIC90 | resazurin | PCM 672 | >100 µg/mL
CO[C@@]1(NC(=O)Cn2cnnn2)C(=O)N2C(C(=O)O)=C(CSc3nnc(C)s3)CSC21 | MIC | - | 914-8 | 25 µg/mL
Cc1noc2ncn(/N=C/c3ccccc3)c(=O)c12 | MIC90 | resazurin | PCM 672 | >100 µg/mL
CC[C@H]1OC(=O)[C@H](C)[C@@H](O[C@H]2C[C@@](C)(OC)[C@@H](O)[C@H](C)O2)[C@H](C)[C@@H](O[C@@H]2O[C@H](C)C[C@H](N(C)C)[C@H]2O)[C@](C)(O)C[C@@H](C)C(=O)[C@H](C)[C@@H](O)[C@]1(C)O | MBC | - | ATCC 6841 | >8 µg/mL
Cc1ccc(/C=N/n2c(C)nc3onc(C)c3c2=O)cc1 | MIC90 | resazurin | PCM 672 | >100 µg/mL
NCC[C@H](O)C(=O)N[C@@H]1C[C@H](N)[C@@H](O[C@H]2O[C@H](CN)[C@@H](O)[C@H](O)[C@H]2O)[C@H](O)[C@H]1O[C@H]1O[C@H](CO)[C@@H](O)[C@H](N)[C@H]1O | MIC50 | broth dilution | - | ≤2 µg/mL
Cc1noc2ncn(/N=C/c3ccc(Cl)cc3Cl)c(=O)c12 | MIC90 | resazurin | PCM 672 | 62.5 µg/mL
CO[C@@]1(NC(=O)Cc2cccs2)C(=O)N2C(C(=O)O)=C(COC(N)=O)CS[C@@H]21 | MIC | - | 1004-8 | 25 µg/mL
Cc1noc2ncn(/N=C/c3ccc(Cl)cc3)c(=O)c12 | MIC90 | resazurin | PCM 672 | >100 µg/mL
C[C@H]1COc2c(N3CCN(C)CC3)c(F)cc3c(=O)c(C(=O)O)cn1c23 | MBC90 | - | 25 isolates | 4 µg/mL
CC1COc2c(N3CCN(C)CC3)c(F)cc3c(=O)c(C(=O)O)cn1c23 | MIC50 | - | 18367 | 3.13 µg/mL
Cc1noc2nc(C)n(/N=C/c3ccc(O)cc3)c(=O)c12 | MIC90 | resazurin | PCM 672 | >100 µg/mL

The last 3 rows once more:

C[C@H]1COc2c(N3CCN(C)CC3)c(F)cc3c(=O)c(C(=O)O)cn1c23 ; read-out: MBC90 ; strain or isolate: 25 isolates ; value: 4 µg/mL
CC1COc2c(N3CCN(C)CC3)c(F)cc3c(=O)c(C(=O)O)cn1c23 ; read-out: MIC50 ; strain or isolate: 18367 ; value: 3.13 µg/mL
Cc1noc2nc(C)n(/N=C/c3ccc(O)cc3)c(=O)c12 ; read-out: MIC90 ; method: resazurin ; strain or isolate: PCM 672 ; value: >100 µg/mL